## Screening data, single-dose tests

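Phenotypic screen: M. tuberculosis growth, cholesterol and DPPC medium, 4 days; the read-out is not stated. Concentration: 500 µM. Direction is inferred from retests: higher values go with more growth inhibition. Of about 18,000 compounds tested this way, about 900 (5%) reached 50% or more in at least one test.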

Values are the deposited “Percent Effect”, in %.
How 0% and 100% were set is not recorded. Most values in the screen are low, and negative values occur.
The entries come from a sample that favours strong results.

* CCN(Cc1nc(COC)no1)C(=O)c1ccoc1C : -10.12%
* CN(C)S(=O)(=O)NCCNc1cccc(Br)c1 : 73.73%
* Cc1cccc(C)c1-n1nnnc1SCC(N)=O : -3.326%
* CCN(Cc1ccc(Cl)s1)C(=O)c1ccc(=O)n(C)n1 : -18.69%
* CC(N[C@@H]1CCCC[C@H]1O)c1nccn1C (stereo partly specified) : -6.551%
* O=C(CC1CCCC1)NCCN1C(=O)CCC1=O : -6.691%
* CSC(C)C(=O)NCc1ccccn1 (stereo unspecified) : -18.74%
* Cc1nc(-n2cccc2)sc1CO : 36.54%
* CC(C)Cc1cc(CNC(=O)C2CCOC2)on1 (stereo unspecified) : 9.709%
* Cc1cc(F)ccc1NC(=O)NCC1(O)CCCNC1 (stereo unspecified) : 2.934%
* CC(C)(C)c1noc(CO)n1 : -0.5599%
* O=C(NCCSCCCO)c1cccc2cc[nH]c12 : -7.085%
* CCc1ccccc1CN1C(=O)CCC1=O : 6.682%
* CCc1nc2c(c(NC)n1)CCNCC2 : -5.978%
* COC(=O)c1snc(-c2ccccc2)c1N : 49.91%
* O=c1[nH]cnc2ccc(Cl)cc12 : -4.459%
* CCn1c(SCC(N)=O)nnc1-c1cc(Br)cs1 : 98.82%
* CCN(CC(=O)NC(N)=O)Cc1ccc2c(c1)OCO2 : -1.87%
* CN(Cc1ccc2cc(Cl)ccc2n1)CC(O)CO (stereo unspecified) : 18.62%
* O=C(Nc1cncc(Br)c1O)c1cncc(F)c1 : -4.813%
* COc1cc(OC)cc(C(=O)NCc2ccnn2C)c1 : -23.24%
* Cc1cccc(OC(C)CN)c1 (stereo unspecified) : -3.017%
* CCOC(=O)c1ccc(N2CCC(CCO)CC2)nc1 : 88%
* CS(=O)(=O)NC1CCNC1 (stereo unspecified) : -2.541%
* Cc1nc(C(=O)Nc2cnn(C)c2)ccc1C#N : -9.009%
* CCCN(C(=O)c1ccc(Br)cn1)C1CCNC1 (stereo unspecified) : -17.58%
* OC(CN1CCOC2(CCCC2)C1)c1ccccc1 (stereo unspecified) : 52.75%
* O=C(CC1C=CCC1)N1CCN(Cc2ccco2)CC1 (stereo unspecified) : 68.7%
* N#Cc1c(N2C(=O)C=CC2=O)sc2c1CCCC2 : -0.4977%
* Cc1ccccc1C(=O)NCCCN1CCCC1 : 0.4911%
* COc1ccc(CC(N)=O)cc1OC : -16.87%
* CC(C)c1cccc(NC(=O)CN2CCC(O)CC2)c1 : 62.28%
* CN(C)S(=O)(=O)c1cc2c(cc1Cl)OCCO2 : 42.1%
* CC(C)Oc1ccc(CN)cc1 : 67.46%
* CN(C)c1cccc(NS(=O)(=O)c2cccs2)n1 : -3.235%
* Cc1ccc(CN(CCCC(=O)NC(N)=O)C2CC2)o1 : -18.53%
* COC(=O)c1ccc(N2CCCC2)nn1 : -0.7174%
* Cc1ccsc1C(=O)N(C)C : -13.37%
* CCN1CCN(C(=O)C2CCCOC2)c2ccccc21 (stereo unspecified) : -3.203%
* CC(=O)N1CCC(C(=O)NCCc2nccn2C)CC1 : 8.247%
* CC(C)Cc1cc(CN)on1 : 16.54%
* Cn1cc(CNC(=O)C2CSc3ccccc3O2)cn1 (stereo unspecified) : 54.84%
* OC1CCNC2(CCC2)C1 (stereo unspecified) : -7.496%
* COc1cccc([C@H]2C[C@H](N)C2)c1 : 18.83%
* COCc1noc(-c2ccc(C#N)cc2)n1 : -19.97%
* CCN1CCN(CC(=O)Nc2cc(C)cc(C)c2)CC1 : 32.96%
* CCN1CCN(Cc2nc(C3CC3)no2)CC1 : 0.2914%
* CCS(=O)(=O)NCCNS(=O)(=O)c1ccc(C)cc1Cl : 14.13%
* NCCc1noc2ccccc12 : 5.878%
* NCCCn1cc(Cl)cn1 : 19.84%
* CSc1ccc(NC(=O)CNC(=O)OC(C)(C)C)cn1 : 44.06%
* CS(=O)(=O)N1CCC(=Cc2ccccc2)CC1 : -8.422%
* CNc1cc(CN(C)Cc2ccccc2)ccn1 : 67.6%
* CCN1CCN(c2ccccc2O)CC1 : 67.63%
* Cc1nn(C)c(C)c1NC(=O)NCC(O)c1ccco1 (stereo unspecified) : 3.672%
* COCCCOc1ccc2c(c1)OCCO2 : 79.72%
* CC(C)COc1cncc(NC(C)CO)n1 (stereo unspecified) : 14.29%
* Cc1nccn1CCCN1CCCC1C(=O)N(C)C (stereo unspecified) : -2.139%

4 of the entries, repeated:

{"compound": "COC(=O)c1snc(-c2ccccc2)c1N", "percent effect": 49.91}
{"compound": "CC(C)Cc1cc(CNC(=O)C2CCOC2)on1", "stereo": "stereo unspecified", "percent effect": 9.709}
{"compound": "CC(C)COc1cncc(NC(C)CO)n1", "stereo": "stereo unspecified", "percent effect": 14.29}
{"compound": "CC(=O)N1CCC(C(=O)NCCc2nccn2C)CC1", "percent effect": 8.247}

The values are deposited in ChEMBL (CHEMBL3988442, “University of Dundee, Small-Polar-MMV Screening Library” (2021)).